6 substances from publication PMC9242477, “Type B and type A influenza polymerases have evolved distinct binding interfaces to recruit the RNA polymerase II CTD” (2022) can be followed below.

Test [1] concerns the target G2-CTD (wild-type full-length CTD of RPB1 fused to G2 and the SV40 NLS). Put plainly: split-gaussia luciferase complementation assay (in vivo CTD binding). Particulars: parent: est. 100; read off a plot.
The target of test [2] is G2-RPB1ΔCTD (CTD repeats 4 to 51 deleted). Put plainly: split-gaussia luciferase complementation assay. Particulars: transient transfection in HEK-293T cells; parent: est. 8.0; read off a plot.

“FluPolB (B/Memphis/13/2003) wt: PB2, PB1 and PA-G1 (from UniProt Q5V8Z9;Q5V8Y6;Q5V8X3) PA:R608A”: in test [1], the percent of parent was 27 % of wt.
On to “FluPolB (B/Memphis/13/2003) wt: PB2, PB1 and PA-G1 (from UniProt Q5V8Z9;Q5V8Y6;Q5V8X3) PA:K631A; PA:R634A”, for which, in test [2], the response was determined as 8 NLR.
In the case of “FluPolB (B/Memphis/13/2003) wt: PB2, PB1 and PA-G1 (from UniProt Q5V8Z9;Q5V8Y6;Q5V8X3) PA:K450A”, the response in test [2] stood at 7.6 NLR. Moreover, the percent of parent in test [1] was 98 % of wt.
For the substance “FluPolB (B/Memphis/13/2003) wt: PB2, PB1 and PA-G1 (from UniProt Q5V8Z9;Q5V8Y6;Q5V8X3) PB2:W553A; PB2:K556A”, in test [1], the percent of parent is 98 % of wt.
On the same count and under the same terms, the result for “FluPolB (B/Memphis/13/2003) wt: PB2, PB1 and PA-G1 (from UniProt Q5V8Z9;Q5V8Y6;Q5V8X3) PB2:W553A” reads 140 % of wt.
For the substance “FluPolB (B/Memphis/13/2003) wt: PB2, PB1 and PA-G1 (from UniProt Q5V8Z9;Q5V8Y6;Q5V8X3) PB2:K556A”, the response in test [2] is 8.7 NLR. For the same substance, the percent of parent in test [1] was 52 % of wt.
